Experiment: general procedure: Fmoc solid-phase peptide synthesis; MBHA resin (0.4 mmol/g) with Fmoc-Rink-amide linker; Oxyma/DIPCDI; cyclization with PyOxim/Oxyma/DIEA
Conditions: whole synthesis, 220 nm, scale of the general procedure MBHA resin 3.5 g

| Substance | crude HPLC purity |
| --- | --- |
| cyclo(LKKKLWKKLQ) | 91% |
| cyclo(KLKKKWKKLQ) | 93% |
| cyclo(LKLLKWKKLQ) | 90% |
| cyclo(KKKKLWLKLQ) | >99% |
| cyclo(KLLLKWKKKQ) | 88% |
| cyclo(LKKKKWLLKQ) | 96% |
| cyclo(KLKKLWKKLQ) | 92% |
| cyclo(KKKLKWKLLQ) | >99% |
| cyclo(KKKKKWKKLQ) | >99% |
| cyclo(LKKLKWKLKQ) | 89% |
| cyclo(LKKKKWLKLQ) | >99% |
| cyclo(LLLLKWKKLQ) | 96% |
| cyclo(KKLLKWKLKQ) | >99% |
| cyclo(LKKKKWKLLQ) | >99% |
| cyclo(LKKLKWLKKQ) | 81% |
| cyclo(KLLKKWLKKQ) | 87% |
| cyclo(KKKLKWLLKQ) | 96% |
| cyclo(KKLKKWLKLQ) | 90% |
| cyclo(KKLKKWKLLQ) | >99% |
| cyclo(KLLKKWKLKQ) | >99% |
| cyclo(KLLLKWKKLQ) | 93% |
| cyclo(KKKLKWLKLQ) | >99% |

| Substance | crude HPLC purity |
| --- | --- |
| cyclo(KKKKLWKLLQ) | >99% |
| cyclo(KLKLKWLKKQ) | >99% |
| cyclo(KLKKLWLKKQ) | >99% |
| cyclo(KLLKLWKKKQ) | 87% |
| cyclo(KKLLLWKKKQ) | 97% |
| cyclo(LLKKKWLKKQ) | 90% |
| cyclo(LKKKLWLKKQ) | >99% |
| cyclo(KKKLLWKLKQ) | >99% |
| cyclo(KKKLLWLKKQ) | >99% |
| cyclo(KKKKLWLLKQ) | >99% |
| cyclo(LLLKKWKKLQ) | 93% |
| cyclo(KLKLKWKLKQ) | 91% |
| cyclo(LKLLKWKKKQ) | 93% |
| cyclo(LLKLKWKKLQ) | 99% |
| cyclo(KKLKKWKKLQ) | 91% |
| cyclo(LLKLKWKKKQ) | >99% |
| cyclo(KLKLKWKKLQ) | >99% |
| cyclo(KKLKLWLKKQ) | >99% |
| cyclo(KKLKKWLLKQ) | >99% |
| cyclo(KLLKKWKKLQ) | 83% |
| cyclo(KKLLKWLKKQ) | 90% |
| cyclo(KKKLLWKKLQ) | >99% |

| Substance | crude HPLC purity |
| --- | --- |
| cyclo(KKKKKWLLLQ) | >99% |
| cyclo(LKKKLWKLKQ) | 89% |
| cyclo(KKKLKWKKLQ) | >99% |
| cyclo(KLKKKWLLKQ) | >99% |
| cyclo(LKKLKWKKLQ) | >99% |
| cyclo(LKLKKWKKLQ) | 88% |
| cyclo(LKKKKWKKLQ) | >99% |
| cyclo(KKLKLWKLKQ) | >99% |
| cyclo(KLKLLWKKKQ) | 91% |
| cyclo(LKLKLWKKKQ) | >99% |
| cyclo(LLKKKWKLKQ) | 87% |
| cyclo(LKLKKWLKKQ) | 87% |
| cyclo(LKKLLWKKKQ) | 85% |
| cyclo(KLKKLWKLKQ) | 84% |
| cyclo(KLKKKWKLLQ) | 88% |
| cyclo(LLLKKWKKKQ) | 90% |
| cyclo(KLKKKWLKLQ) | 96% |
| cyclo(KKLLKWKKLQ) | 88% |
| cyclo(LLKKLWKKKQ) | 86% |
| cyclo(LLKKKWKKLQ) | >99% |
| cyclo(KKLKLWKKLQ) | 88% |
| cyclo(LKLKKWKLKQ) | 97% |

From paper PMC6150173 (Molecules : A Journal of Synthetic Chemistry and Natural …, 2017)
